Laboratory results taken from US7998474B2, “Methods for treating an inflammatory disease of the bowel” (Rowett Research Institute, priority 2001, dated 2011).

Tested on: Caco-2 cells
Assay: Inflammatory cytokine gene expression in Caco-2 cells exposed to S. enteritidis (macroarray, Northern, real-time PCR)
Type: cell-based

Bacteroides thetaiotaomicron [BT]
Inhibitory effect on IL-8 expression over time (10^8 S. enteritidis and 10^9 B. thetaiotaomicron for 2 or 4 hours): sustained for prolonged periods | IL-8 expression induced by other inflammatory mediators (IL-1α, IL1-β, TNF-α, PMA, LPS, E. coli 0157 H7) (10^9 B. thetaiotaomicron): only the PMA, S. enteritidis and E. coli 0157 H7 effects were attenuated
